PubChem BioAssay AID624099 – ICCB-Longwood – 2012

Purpose: 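Host factors E2 relies on to silence an HPV18 LCR reporter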 (primary screen)
System: human C33A cervical carcinoma cells (HPV-negative) stably expressing BPV1 E2 and an HPV18 LCR luciferase reporter
Reagents: siRNA pool against human genes, 40 nM
Time to read-out: 72 h
Measurement: 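HPV18 LCR reporter light per well, converted to plate-wise z-scores that exclude control wells, and averaged over triplicate plates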
Reading the numbers: mean z-score and z-score: higher = stronger reporter signal, weaker E2 silencing
Hit rule: 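Hit if mean z-score reaches 2 and two or more of three replicate z-scores also reach 2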
In all, the deposit lists about 21,000 reagents; this is an unselected part. Of all reagents, 497 (2.4%) were called active. 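Higher z means weaker E2 silencing; only reporter increases were scored, and knock-downs that hurt cell survival may mask genuine repressor factors.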 Entries without a mark were called inactive. The numbers tell different reagents against one gene apart.

After knock-down of SPESP1 (sperm equatorial segment protein 1), the record shows mean z-score -0.87; z-score, replicate A = -1.22; z-score, replicate B = -0.65; z-score, replicate C = -0.75. With knock-down of KRT17 (keratin 17), the record shows mean z-score -0.49; z-score, replicate A = -0.27; z-score, replicate B = -0.49; z-score, replicate C = -0.69. WDR35 (WD repeat domain 35) gave mean z-score 0.78; z-score, replicate A = 0.77; z-score, replicate B = 0.73; z-score, replicate C = 0.85. TMEM72 (transmembrane protein 72) gave mean z-score 1.21; z-score, replicate A = 1.66; z-score, replicate B = 1.16; z-score, replicate C = 0.81. Knock-down of LOC402199 (retired record) came out at: mean z-score 0.21; z-score, replicate A = 0.15; z-score, replicate B = 0.16; z-score, replicate C = 0.32. Silencing of ZNF658B (zinc finger protein 658B (pseudogene)) #1 resulted in: mean z-score 0.98; z-score, replicate A = 1.52; z-score, replicate B = 0.83; z-score, replicate C = 0.58.

ZNF658B (zinc finger protein 658B (pseudogene)) #2 showed mean z-score 1.14; z-score, replicate A = 1.1; z-score, replicate B = 1.06; z-score, replicate C = 1.27. With knock-down of CLEC9A (C-type lectin domain containing 9A), the record shows mean z-score 0.53; z-score, replicate A = 0.54; z-score, replicate B = 0.67; z-score, replicate C = 0.37. IFNGR2 (interferon gamma receptor 2) gave mean z-score 1.25; z-score, replicate A = 0.9; z-score, replicate B = 1.44; z-score, replicate C = 1.41. PPIAP72 (peptidylprolyl isomerase A pseudogene 72) gave mean z-score 1.21; z-score, replicate A = 1.45; z-score, replicate B = 1.25; z-score, replicate C = 0.95. Knock-down of PIPOX (pipecolic acid and sarcosine oxidase) gave: mean z-score -0.98; z-score, replicate A = -0.63; z-score, replicate B = -1.19; z-score, replicate C = -1.12. TXNDC9P1 (TXNDC9 pseudogene 1) scored mean z-score 0.6; z-score, replicate A = 0.61; z-score, replicate B = 0.21; z-score, replicate C = 0.97.

Silencing of HMG20B (high mobility group 20B) resulted in: mean z-score -1.11; z-score, replicate A = -1.17; z-score, replicate B = -1.18; z-score, replicate C = -0.99. Silencing of LINC00208 (long independently transcribed non-coding RNA 208) resulted in: mean z-score 0.2; z-score, replicate A = 0.16; z-score, replicate B = 0.32; z-score, replicate C = 0.12. Depletion of OR4C45 resulted in: mean z-score -0.83; z-score, replicate A = -1.46; z-score, replicate B = -0.72; z-score, replicate C = -0.31. For SUGT1P4-STRA6LP-CCDC180 (SUGT1P4-STRA6LP-CCDC180 readthrough), the entry reads mean z-score 0.17; z-score, replicate A = 0.55; z-score, replicate B = 0.48; z-score, replicate C = -0.52. For APBA1 (amyloid beta precursor protein binding family A member 1), the entry reads mean z-score -0.94; z-score, replicate A = -0.78; z-score, replicate B = -1.1; z-score, replicate C = -0.93. Against SPPL2B (signal peptide peptidase like 2B), the entry reads mean z-score -0.57; z-score, replicate A = -0.61; z-score, replicate B = -0.65; z-score, replicate C = -0.44.

GANC (glucosidase alpha, neutral C) gave mean z-score 2.9 (active); z-score, replicate A = 3.07; z-score, replicate B = 2.86; z-score, replicate C = 2.77. Silencing of UCP3 (uncoupling protein 3) came out at: mean z-score 0; z-score, replicate A = 0.4; z-score, replicate B = -0.01; z-score, replicate C = -0.4. MPIG6B (megakaryocyte and platelet inhibitory receptor G6b) showed mean z-score -0.2; z-score, replicate A = -0.46; z-score, replicate B = -0.02; z-score, replicate C = -0.11.

3 of these entries, reformatted:
Gene,pool no.,mean z-score,"z-score, replicate A","z-score, replicate B","z-score, replicate C"
CLEC9A (C-type lectin domain containing 9A),1,0.53,0.54,0.67,0.37
IFNGR2 (interferon gamma receptor 2),1,1.25,0.9,1.44,1.41
PPIAP72 (peptidylprolyl isomerase A pseudogene 72),1,1.21,1.45,1.25,0.95
